Measured values from several laboratories, pooled; numbers as filed in NIAID ChemDB.

All rows: whole-cell or culture tests; organism: HIV-1

ECn is the concentration giving n% inhibition of infection, replication or growth.

{"structure": "CCC[C@@]1(CCc2ccccc2)CC(O)=C([C@H](CC)c2cccc(NS(=O)(=O)c3ccc(C(F)(F)F)cn3)c2)C(=O)O1", "mutations": "L10F I47I/V", "cell line": "MT-4", "read by": "reporter gene", "read-out": "EC50", "strain or isolate": "T20760", "result": "2087 nM"}
{"structure": "Nc1nc(NC2CC2)c2ncn([C@H]3C=C[C@@H](CO)C3)c2n1", "mutations": "RT-M184V", "cell line": "MT-4", "read by": "p24", "read-out": "EC50", "strain or isolate": "XM-M184V", "result": "<9.5 µM"}
{"structure": "CC(C)C1=C2C3CCC4[C@@]5(C)CC[C@H](OC(=O)CC(C)(C)C(=O)O)C(C)(C)C5CC[C@@]4(C)[C@]3(C)CC[C@@]2(NC(=O)OCCN2CCCC2)CC1=O", "cell line": "MT-2", "read by": "RT activity", "conditions": "30% human serum", "read-out": "EC50", "strain or isolate": "IIIB", "result": "<0.199 µM"}
{"structure": "O=C(COc1ccc(Cl)cc1C(=O)c1nccs1)Nc1ccc2[nH]ncc2c1", "cell line": "MT-4", "read by": "cytopathic effect / propidium iodide", "read-out": "EC50", "strain or isolate": "IIIB", "result": "0.011–0.1 µM"}
{"structure": "O=C(C(=O)N1CCN(C(=O)c2ccc(Cl)cc2S)CC1)c1c[nH]c2cccc(Cl)c12", "cell line": "HeLa + HELA CD4+/CCR5", "read by": "luciferase", "read-out": "EC50", "result": "<10 µM"}
{"structure": "CC(C)C1=C2[C@H]3CC[C@@H]4[C@@]5(C)CC[C@H](OC(=O)CC(C)(C)C(=O)O)C(C)(C)[C@@H]5CC[C@@]4(C)[C@]3(C)CC[C@@]2(NC(=O)OC(C)(C)C)CC1=O", "cell line": "MT-2", "read by": "RT activity", "conditions": "30% human serum", "read-out": "EC50", "strain or isolate": "IIIB", "result": "<0.199 µM"}
{"structure": "CC(c1ccccn1)n1c(=O)c(O)c2n(c1=O)CCN(Cc1ccc(F)cc1)C2=O", "cell line": "MT-4", "read by": "p24", "read-out": "EC95", "result": "<10 µM"}
{"structure": "CC(C)CN(C[C@@H](O)[C@H](Cc1ccccc1)NC(=O)OCc1cncs1)S(=O)(=O)c1ccc2nc(N(C)C(=O)CN3CCOCC3)sc2c1", "cell line": "MT-4", "read by": "cytopathic effect / MTT", "read-out": "EC50", "strain or isolate": "R13080", "result": "0.6607 µM"}
{"structure": "COc1ccc(Br)c2[nH]cc(C(=O)C(=O)N3CCN(C(=O)c4ccccc4)CC3)c12", "cell line": "HeLa + HELA CD4+/CCR5", "read by": "luciferase", "read-out": "EC50", "result": "<10 µM"}
{"structure": "Cc1cc2cn[nH]c2cc1NC(=O)COc1ccc(Cl)cc1C(=O)c1cccc(C#N)c1", "mutations": "RT-Y181C", "cell line": "HeLa + HELA CD4+", "read by": "β-galactosidase", "read-out": "EC50", "strain or isolate": "HXB2", "result": "<0.01 µM"}
{"structure": "O=C1c2c(O)c(=O)n(CC3CCCN4CCCCC34)c(=O)n2CCN1Cc1ccc(F)cc1", "cell line": "MT-4", "read by": "p24", "read-out": "EC50", "result": "<10 µM"}
{"structure": "Cc1ncc(-c2ccc(OCCOC3CCCC3)cn2)c(N2CCC(C)(C)CC2)c1[C@H](OC(C)(C)C)C(=O)O", "cell line": "MT-2", "read by": "luminescence", "read-out": "EC50", "strain or isolate": "NL4-3", "result": "0.0007 µM"}
{"structure": "CC(C)CN(C[C@@H](O)[C@H](Cc1ccccc1)NC(=O)OCc1cncs1)S(=O)(=O)c1ccc2nc(N(C)C(=O)CN(C)C)sc2c1", "cell line": "MT-4", "read by": "cytopathic effect / MTT", "read-out": "EC50", "strain or isolate": "R13025", "result": "0.0631 µM"}
{"structure": "O=C(C(=O)N1CCN(C(=O)c2ccc(F)c(F)c2)CC1)c1c[nH]c2ccccc12", "cell line": "MT-2", "read by": "RT activity", "read-out": "EC50", "strain or isolate": "BRU", "result": ">10 µM"}
{"structure": "CC(C)CN(C[C@@H](O)[C@H](Cc1ccccc1)NC(=O)O[C@H]1CO[C@H]2OCC[C@H]21)S(=O)(=O)c1ccc2nc(NC(=O)CN3CCCC3)sc2c1", "cell line": "MT-4", "read by": "cytopathic effect / MTT", "read-out": "EC50", "strain or isolate": "LAI", "result": "<0.05 µM"}
{"structure": "Cc1cc(S(N)(=O)=O)ccc1NC(=O)COc1ccc(Cl)cc1C(=O)c1cc(F)cc(C#N)c1", "mutations": "RT-Y181C", "cell line": "MT-4", "read by": "cytopathic effect / propidium iodide", "read-out": "EC50", "strain or isolate": "Nevirapine-resistant (RT Y181C)", "result": "<0.01 µM"}
{"structure": "CC(C)C1=C2[C@H]3CC[C@@H]4[C@@]5(C)CC[C@H](OC(=O)CC(C)(C)C(=O)O)C(C)(C)[C@@H]5CC[C@@]4(C)[C@]3(C)CC[C@@]2(NC(=O)C2CCNCC2)CC1=O", "cell line": "MT-2", "read by": "RT activity", "conditions": "30% human serum", "read-out": "EC50", "strain or isolate": "IIIB", "result": ">1 µM"}
{"structure": "Nc1nc(=O)n([C@H]2C=C[C@@H](CO)O2)cc1F", "cell line": "PBMC", "read by": "p24", "read-out": "EC50", "strain or isolate": "NL-XM WT", "result": "<1.7 µM"}
{"structure": "O=C1c2c(O)c(=O)n(CC3CCCCC3)c(=S)n2CCN1Cc1ccc(F)cc1", "cell line": "MT-4", "read by": "p24", "read-out": "EC50", "result": "<10 µM"}
{"structure": "Cc1cccc(C)c1OCC(=O)N[C@@H](Cc1ccccc1)[C@H](O)CN(CC(C)C)S(=O)(=O)c1ccc2nc(NC(=O)C3CCN(C)CC3)sc2c1", "cell line": "MT-4", "read by": "cytopathic effect / MTT", "read-out": "EC50", "strain or isolate": "R13025", "result": "0.0191 µM"}
{"structure": "COC(=O)C(CCSC)n1c(=O)c(O)c2n(c1=O)CCN(Cc1ccc(F)cc1)C2=O", "cell line": "MT-4", "read by": "p24", "read-out": "EC50", "result": "<10 µM"}
{"structure": "Clc1cc(CN2CCCNCCNCCCNCC2)cc(Cl)n1", "cell line": "PBMC", "read by": "p24", "read-out": "EC50", "strain or isolate": "R5 clinical isolate #19", "result": "4.7 µM"}
{"structure": "Cc1ncc(-c2ccc(O[C@@H](C)C3CCC3)nc2)c(N2CCC(C)(C)CC2)c1[C@H](OC(C)(C)C)C(=O)O", "cell line": "MT-2", "read by": "luminescence", "read-out": "EC50", "strain or isolate": "NL4-3", "result": "0.007 µM"}
{"structure": "Cc1cc(C#N)cc(C(=O)c2cc(Cl)ccc2OCC(=O)Nc2ccc(S(N)(=O)=O)nc2C)c1", "mutations": "RT-K103N", "cell line": "HeLa + HELA CD4+", "read by": "β-galactosidase", "read-out": "EC50", "strain or isolate": "HXB2", "result": "<0.01 µM"}
{"structure": "C[C@@H]1CN(C(=O)c2ccccc2)CCN1C(=O)C(=O)c1c[nH]c2cc(Cl)c(Cl)cc12", "cell line": "HeLa + HELA CD4+/CCR5", "read by": "luciferase", "read-out": "EC50", "result": "<10 µM"}
{"structure": "Cc1ncc(-c2ccc(NCCOc3ccccc3)nc2)c(N2CCC(C)(C)CC2)c1[C@H](OC(C)(C)C)C(=O)O", "cell line": "MT-2", "read by": "luminescence", "read-out": "EC50", "strain or isolate": "NL4-3", "result": "0.004 µM"}
{"structure": "CC(C)C1=C2[C@H]3CC[C@@H]4[C@@]5(C)CC[C@H](OC(=O)CC(C)(C)C(=O)O)C(C)(C)[C@@H]5CC[C@@]4(C)[C@]3(C)CC[C@@]2(NC(=O)c2ccccc2F)CC1=O", "cell line": "MT-2", "read by": "RT activity", "conditions": "30% human serum", "read-out": "EC50", "strain or isolate": "IIIB", "result": "<0.199 µM"}
{"structure": "O=C(C(=O)N1CCN(C(=O)c2ccc(Br)o2)CC1)c1c[nH]c2c(F)ccc(F)c12", "cell line": "HeLa + HELA CD4+/CCR5", "read by": "luciferase", "read-out": "EC50", "result": "<10 µM"}
{"structure": "Cc1ncc(-c2ccc(O[C@H](C)COc3ccccc3)nc2)c(N2CCC(C)(C)CC2)c1[C@H](OC(C)(C)C)C(=O)O", "cell line": "MT-2", "read by": "luminescence", "read-out": "EC50", "strain or isolate": "NL4-3", "result": "0.0024 µM"}
{"structure": "CC(C)C1=C2C3CCC4[C@@]5(C)CC[C@H](OC(=O)CC(C)(C)C(=O)O)C(C)(C)C5CC[C@@]4(C)[C@]3(C)CC[C@@]2(NC(=O)c2cncs2)CC1=O", "cell line": "MT-2", "read by": "RT activity", "conditions": "30% human serum", "read-out": "EC50", "strain or isolate": "IIIB", "result": "<0.199 µM"}
{"structure": "Cc1cc2[nH]cnc2cc1NC(=O)COc1ccc(Cl)cc1C(=O)c1cc(F)cc(C(F)(F)F)c1", "mutations": "RT-V106A", "cell line": "HeLa + HELA CD4+", "read by": "β-galactosidase", "read-out": "EC50", "strain or isolate": "HXB2", "result": "0.011–0.1 µM"}
{"structure": "CCCc1cc(=O)oc2c3c(c4c(c12)OC(C)(C)CC4)O[C@H](C)[C@@H](C)C3=O", "cell line": "CEM + CEM-SS", "read by": "cytopathic effect / XTT", "read-out": "EC50", "strain or isolate": "RF", "result": "0.9 µM"}
{"structure": "CC(C)CN(C[C@@H](O)[C@H](Cc1ccccc1)NC(=O)OCc1cncs1)S(=O)(=O)c1ccc2nc(NC(=O)CN3CCN(C)CC3)sc2c1", "cell line": "MT-4", "read by": "cytopathic effect / MTT", "read-out": "EC50", "strain or isolate": "R13025", "result": "0.0166 µM"}
{"structure": "Cc1cc(S(N)(=O)=O)ccc1NC(=O)COc1ccc(Cl)cc1C(=O)c1cc(F)cc(F)c1", "mutations": "RT-P236L", "cell line": "HeLa + HELA CD4+", "read by": "β-galactosidase", "read-out": "EC50", "strain or isolate": "HXB2", "result": "0.011–0.1 µM"}
{"structure": "CC(C)CN(C[C@@H](O)[C@H](Cc1ccccc1)NC(=O)OCc1cncs1)S(=O)(=O)c1ccc2nc(N(C)C(=O)CN3CCN(C)CC3)sc2c1", "cell line": "MT-4", "read by": "cytopathic effect / MTT", "read-out": "EC50", "strain or isolate": "IIIB", "result": "0.0056 µM"}
{"structure": "Cc1ncc(-c2cnc(OCC[Si](C)(C)C)c(F)c2)c(N2CCC(C)(C)CC2)c1[C@H](OC(C)(C)C)C(=O)O", "cell line": "MT-2", "read by": "luminescence", "read-out": "EC50", "strain or isolate": "NL4-3", "result": "0.0132 µM"}
{"structure": "CC(C)C1=C2C3CCC4[C@@]5(C)CC[C@H](OC(=O)CC(C)(C)C(=O)O)C(C)(C)C5CC[C@@]4(C)[C@]3(C)CC[C@@]2(NC(=O)c2ccccc2C(=O)O)CC1=O", "cell line": "MT-2", "read by": "RT activity", "conditions": "30% human serum", "read-out": "EC50", "strain or isolate": "IIIB", "result": "<0.199 µM"}
{"structure": "Cc1ccnc2c1NC(=O)c1cccnc1N2C1CC1", "mutations": "Y181C", "cell line": "TZM-bl", "read by": "p24 / ELISA", "read-out": "EC50", "strain or isolate": "A17", "result": ">10 µM"}
{"structure": "O=C(C(=O)N1CCN(C(=O)c2ccco2)CC1)c1c[nH]c2cccc(F)c12", "cell line": "HeLa + HELA CD4+/CCR5", "read by": "luciferase", "read-out": "EC50", "result": "<10 µM"}
{"structure": "CC(C)C1=C2[C@H]3CC[C@@H]4[C@@]5(C)CC[C@H](OC(=O)CC(C)(C)C(=O)O)C(C)(C)[C@@H]5CC[C@@]4(C)[C@]3(C)CC[C@@]2(NS(C)(=O)=O)CC1=O", "cell line": "MT-2", "read by": "RT activity", "conditions": "30% human serum", "read-out": "EC50", "strain or isolate": "IIIB", "result": "<0.199 µM"}
{"structure": "Cc1ncc(-c2ccc(OCC3CC(C)C3)nc2)c(N2CCC(C)(C)CC2)c1[C@H](OC(C)(C)C)C(=O)O", "cell line": "MT-2", "read by": "luminescence", "read-out": "EC50", "strain or isolate": "NL4-3", "result": "0.0046 µM"}
{"structure": "Cc1cc(OCCCS(N)(=O)=O)ccc1NC(=O)COc1ccc(Cl)cc1C(=O)c1cc(F)cc(C(F)(F)F)c1", "mutations": "RT-Y181C", "cell line": "HeLa + HELA CD4+", "read by": "β-galactosidase", "read-out": "EC50", "strain or isolate": "HXB2", "result": "<0.01 µM"}
{"structure": "Cc1cc(N)ccc1C(=O)N[C@@H](Cc1ccccc1)[C@H](O)CN(CC(C)C)S(=O)(=O)c1ccc2nc(NC(=O)CN3CCCC3)sc2c1", "cell line": "MT-4", "read by": "cytopathic effect / MTT", "read-out": "EC50", "strain or isolate": "LAI", "result": "<0.05 µM"}
{"structure": "O=C(COc1ccc(Cl)cc1C(=O)c1cc2ccccc2o1)Nc1ccccc1", "cell line": "MT-4", "read by": "cytopathic effect / propidium iodide", "read-out": "EC50", "strain or isolate": "IIIB", "result": "0.011–0.1 µM"}
{"structure": "C[C@@H]1CN(C(=O)c2ccccc2)CCN1C(=O)C(=O)c1c[nH]c2c(F)c(F)c(F)c(F)c12", "cell line": "HeLa + HELA CD4+/CCR5", "read by": "luciferase", "read-out": "EC50", "result": "<10 µM"}
{"structure": "CC(=O)N(C)c1nc2ccc(S(=O)(=O)N(Cc3ccccn3)C[C@@H](O)[C@H](Cc3ccccc3)NC(=O)COc3c(C)cccc3C)cc2s1", "cell line": "MT-4", "read by": "cytopathic effect / MTT", "read-out": "EC50", "strain or isolate": "LAI", "result": ">0.5 µM"}
{"structure": "Cc1cc(C#N)cc(C(=O)c2cc(Cl)ccc2OCC(=O)Nc2cnc(S(N)(=O)=O)cc2C)c1", "mutations": "RT-Y181C", "cell line": "MT-4", "read by": "cytopathic effect / propidium iodide", "read-out": "EC50", "strain or isolate": "Nevirapine-resistant (RT Y181C)", "result": "<0.01 µM"}

The last 3 rows once more:

{"structure": "C[C@@H]1CN(C(=O)c2ccccc2)CCN1C(=O)C(=O)c1c[nH]c2c(F)c(F)c(F)c(F)c12", "cell line": "HeLa + HELA CD4+/CCR5", "read by": "luciferase", "read-out": "EC50", "result": "<10 µM"}
{"structure": "CC(=O)N(C)c1nc2ccc(S(=O)(=O)N(Cc3ccccn3)C[C@@H](O)[C@H](Cc3ccccc3)NC(=O)COc3c(C)cccc3C)cc2s1", "cell line": "MT-4", "read by": "cytopathic effect / MTT", "read-out": "EC50", "strain or isolate": "LAI", "result": ">0.5 µM"}
{"structure": "Cc1cc(C#N)cc(C(=O)c2cc(Cl)ccc2OCC(=O)Nc2cnc(S(N)(=O)=O)cc2C)c1", "mutations": "RT-Y181C", "cell line": "MT-4", "read by": "cytopathic effect / propidium iodide", "read-out": "EC50", "strain or isolate": "Nevirapine-resistant (RT Y181C)", "result": "<0.01 µM"}

Conditions beyond the fields shown may differ between rows. a–b is a range or a potency band.